US20080299131A1, “Anti-Viral Compositions” (priority 2004, published 2008)

System: EEV spread (comet-shaped plaques)
Assay type: cell-based, Vaccinia virus

Substance: heparin [HP]
- comet tails (HP 5, 25 or 100 μg/ml with mAb 2D5 (1/500)): reduced severely and were almost abolished at the higher HP concentrations
- comet-shaped plaque formation (HP alone, 5, 25 or 100 μg/ml): not inhibited
